Results of unrelated studies side by side (data: NIAID ChemDB).

Shared fields: whole-cell or culture tests; organism: Aspergillus clavatus

Zone: diameter of growth inhibition.

structure,strain or isolate,read by,read-out,tested at,value
Cc1ccc2nc(Cl)c(C3SC(=Cc4cccc(O)c4)C(=O)N3n3c(-c4ccc(Cl)cc4)nc4ccccc4c3=O)cc2c1,-,broth dilution / visual reading,MIC99,-,200 µg/mL
Cc1ccc(N2NOC(=O)C2S(=O)(=O)Nc2ccc(-n3c(-c4ccccc4Cl)nc4ccccc4c3=O)cc2)cc1,MTCC323,agar diffusion,zone,250 µg/mL,20 mm
O=C1CSC(N2N=C(c3ccccc3O)CC2c2cc3ccccc3nc2Cl)=N1,MTCC 1323,-,MIC100,-,500 µg/mL
Cc1ccc2nc(Cl)c(C3SC(=Cc4ccccc4O)C(=O)N3n3c(-c4ccc(Cl)cc4)nc4ccccc4c3=O)cc2c1,-,broth dilution / visual reading,MIC99,-,100 µg/mL
N#Cc1ccc(Nc2nc(Oc3cccc4cccnc34)nc(N3CCN(c4cccc(Cl)c4Cl)CC3)n2)cc1C(F)(F)F,MTCC 1323,agar diffusion / agar,zone,100 µg/disc,25 mm
Cc1ccc2nc(Cl)c(C3SC(=Cc4ccccc4[N+](=O)[O-])C(=O)N3n3c(-c4ccc(Cl)cc4)nc4ccccc4c3=O)cc2c1,-,broth dilution / visual reading,MIC99,-,500 µg/mL
Cc1ccc(/C=C2/S/C(=N/NC(=O)c3sc(NC(=O)c4ccc(F)cc4)nc3C)N(c3ccccc3)C2=O)cc1,MTCC 1323,-,MIC50,-,50 µg/mL
CC(=O)Nc1ccc(OCC(=O)N2N=C(c3nc4ccccc4[nH]3)CC2c2ccc(Br)cc2)cc1,MTCC 1323,-,MIC100,-,50 µg/mL
Cc1ccc2nc(Cl)c(C3SC(=Cc4ccc([N+](=O)[O-])cc4)C(=O)N3n3c(-c4ccc(Cl)cc4)nc4ccccc4c3=O)cc2c1,-,broth dilution / visual reading,MIC99,-,500 µg/mL
N#Cc1ccc(Nc2nc(Oc3cccc4cccnc34)nc(N3CCN(c4ccccn4)CC3)n2)cc1C(F)(F)F,MTCC 1323,agar diffusion / agar,zone,100 µg/disc,22 mm
CCN1CCN(c2nc(Nc3ccc(C#N)c(C(F)(F)F)c3)nc(Oc3ccnc4ccccc34)n2)CC1,MTCC 1323,agar,zone,100 µg/mL,<10 mm
Cc1ccc(N2NOC(=O)C2S(=O)(=O)Nc2ccc(-n3c(-c4cccc(Br)c4)nc4ccccc4c3=O)cc2)cc1,MTCC323,agar diffusion,zone,250 µg/mL,23 mm
Cc1ccc(-c2nc3ccccc3c(=O)n2-c2ccc(C(=O)NN3C(=O)/C(=C/c4ccc(F)cc4)SC3c3ccc(F)cc3)cc2)cc1,MTCC 1323,-,MIC100,-,100 µg/mL
Cc1nn(-c2ccccc2)c2c1C(c1ccccc1)c1c(nc(=S)[nH]c1N)O2,MTCC 1323,-,MIC,-,>1000 µg/mL
CC(=O)Nc1ccc(OCC(=O)N2N=C(c3nc4ccccc4[nH]3)CC2c2cccc(Cl)c2)cc1,MTCC 1323,-,MIC100,-,100 µg/mL
O=C1CSC(N2N=C(c3ccccc3Cl)CC2c2cc3ccccc3nc2Cl)=N1,MTCC 1323,-,MIC100,-,100 µg/mL
Cc1ccc(N2NOC(=O)C2S(=O)(=O)Nc2nc3ccc(Br)cc3s2)cc1,MTCC323,agar diffusion,zone,250 µg/mL,24 mm
Cc1nn(-c2ccccc2)c2c1C(c1cccc([N+](=O)[O-])c1)C(C#N)=C(N)O2,MTCC 1323,-,MIC,-,1000 µg/mL
Cc1ccc(-c2nc3ccccc3c(=O)n2-c2ccc(C(=O)NN3C(=O)CSC3c3ccc(F)cc3)cc2)cc1,MTCC 1323,-,MIC100,-,1000 µg/mL
Cc1ccc(N2NOC(=O)C2S(=O)(=O)Nc2ccc(-n3c(-c4ccccc4[N+](=O)[O-])nc4ccccc4c3=O)cc2)cc1,MTCC323,agar diffusion,zone,250 µg/mL,20 mm
CC(=O)Nc1ccc(OCC(=O)N2N=C(c3nc4ccccc4[nH]3)CC2c2cccc(O)c2)cc1,MTCC 1323,-,MIC100,-,500 µg/mL
Cc1ccc2nc(Cl)c(C3SC(=Cc4ccccc4Cl)C(=O)N3n3c(-c4ccc(Cl)cc4)nc4ccccc4c3=O)cc2c1,-,broth dilution / visual reading,MIC99,-,100 µg/mL
Cc1ccc(-c2nc3ccccc3c(=O)n2-c2ccc(C(=O)NN3C(=O)/C(=C/c4cccc(Cl)c4)SC3c3ccc(F)cc3)cc2)cc1,MTCC 1323,-,MIC100,-,1000 µg/mL
CC(=O)Nc1ccc(OCC(=O)N2N=C(c3nc4ccccc4[nH]3)CC2c2ccccc2)cc1,MTCC 1323,-,MIC100,-,500 µg/mL
O=C1CSC(N2N=C(c3ccc(O)cc3)CC2c2cc3ccccc3nc2Cl)=N1,MTCC 1323,-,MIC100,-,500 µg/mL
COc1ccc(/C=C2\SC(c3ccc(F)cc3)N(NC(=O)c3ccc(-n4c(-c5ccc(C)cc5)nc5ccccc5c4=O)cc3)C2=O)cc1,MTCC 1323,-,MIC100,-,1000 µg/mL
N#Cc1ccc(Nc2nc(Oc3ccnc4ccccc34)nc(N3CCN(c4ccccc4)CC3)n2)cc1C(F)(F)F,MTCC 1323,agar,zone,100 µg/mL,<10 mm
Cc1ccc(-c2nc3ccccc3c(=O)n2-c2ccc(C(=O)NN3C(=O)/C(=C/c4ccc(Br)cc4)SC3c3ccc(F)cc3)cc2)cc1,MTCC 1323,-,MIC100,-,500 µg/mL
Cc1nn(-c2ccccc2)c2c1C(c1cccc([N+](=O)[O-])c1)c1c(nc(=O)[nH]c1N)O2,MTCC 1323,-,MIC,-,500 µg/mL
Cc1ccc2nc(Cl)c(C3SC(=Cc4ccc(Cl)cc4)C(=O)N3n3c(-c4ccc(Cl)cc4)nc4ccccc4c3=O)cc2c1,-,broth dilution / visual reading,MIC99,-,500 µg/mL
CC(=O)Nc1ccc(OCC(=O)N2N=C(c3nc4ccccc4[nH]3)CC2c2ccc(O)cc2)cc1,MTCC 1323,-,MIC100,-,500 µg/mL
Cc1nc(NC(=O)c2ccc(F)cc2)sc1C(=O)N/N=C1/S/C(=C/c2ccc(F)cc2)C(=O)N1c1ccccc1,MTCC 1323,-,MIC50,-,1000 µg/mL
Cc1nn(-c2ccccc2)c2c1C(c1ccc(Cl)cc1)C(C#N)=C(N)O2,MTCC 1323,-,MIC,-,>1000 µg/mL
COc1ccc(-c2nc3ccccc3c(=O)n2-c2ccc(NS(=O)(=O)C3C(=O)ONN3c3ccc(C)cc3)cc2)cc1[N+](=O)[O-],MTCC323,agar diffusion,zone,250 µg/mL,22 mm
Cc1nc(NC(=O)c2ccc(F)cc2)sc1C(=O)N/N=C1/S/C(=C/c2ccc([N+](=O)[O-])cc2)C(=O)N1c1ccccc1,MTCC 1323,-,MIC50,-,250 µg/mL
CCCCOc1ccc(-c2csc(NS(=O)(=O)C3C(=O)ONN3c3ccc(C)cc3)n2)cc1,MTCC323,agar diffusion,zone,250 µg/mL,23 mm
CC(=O)Nc1ccc(OCC(=O)N2N=C(c3nc4ccccc4[nH]3)CC2c2ccc([N+](=O)[O-])cc2)cc1,MTCC 1323,-,MIC100,-,25 µg/mL
CC(=O)N1CCN(c2nc(Nc3ccc(C#N)c(C(F)(F)F)c3)nc(Oc3cccc4cccnc34)n2)CC1,MTCC 1323,agar diffusion / agar,zone,100 µg/disc,27 mm
CC(=O)Nc1ccc(OCC(=O)N2N=C(c3nc4ccccc4[nH]3)CC2c2ccccc2[N+](=O)[O-])cc1,MTCC 1323,-,MIC100,-,50 µg/mL
Cc1nn(-c2ccccc2)c2c1C(c1ccc(O)cc1)c1c(nc(=O)[nH]c1N)O2,MTCC 1323,-,MIC,-,>1000 µg/mL
N#Cc1ccc(Nc2nc(Oc3cccc4cccnc34)nc(N3CCCCC3)n2)cc1C(F)(F)F,MTCC 1323,agar diffusion / agar,zone,100 µg/disc,21 mm
Cc1ccc(-c2nc3ccccc3c(=O)n2-c2ccc(C(=O)NN3C(=O)/C(=C/c4cccc(Br)c4)SC3c3ccc(F)cc3)cc2)cc1,MTCC 1323,-,MIC100,-,1000 µg/mL
O=C1CSC(N2N=C(c3ccccc3)CC2c2cc3ccccc3nc2Cl)=N1,MTCC 1323,-,MIC100,-,1000 µg/mL
COc1ccccc1/C=C1/S/C(=N/NC(=O)c2sc(NC(=O)c3ccc(F)cc3)nc2C)N(c2ccccc2)C1=O,MTCC 1323,-,MIC50,-,50 µg/mL
Cc1ccc(C2c3c(nc(=O)[nH]c3N)Oc3c2c(C)nn3-c2ccccc2)cc1,MTCC 1323,-,MIC,-,500 µg/mL

Blank or dashed fields: not listed here. A number after MIC or MFC names an inhibition level or a share of isolates. Rows are shuffled and stem from different studies.